# Only a part is listed here, and it is no random draw. Active and inactive are the calls of the source. Calls follow the shape of the full dose curve.
# By UniProt entry, the sequences of proteins in these tests, tags left out.
# UniProt P00811, whole entry: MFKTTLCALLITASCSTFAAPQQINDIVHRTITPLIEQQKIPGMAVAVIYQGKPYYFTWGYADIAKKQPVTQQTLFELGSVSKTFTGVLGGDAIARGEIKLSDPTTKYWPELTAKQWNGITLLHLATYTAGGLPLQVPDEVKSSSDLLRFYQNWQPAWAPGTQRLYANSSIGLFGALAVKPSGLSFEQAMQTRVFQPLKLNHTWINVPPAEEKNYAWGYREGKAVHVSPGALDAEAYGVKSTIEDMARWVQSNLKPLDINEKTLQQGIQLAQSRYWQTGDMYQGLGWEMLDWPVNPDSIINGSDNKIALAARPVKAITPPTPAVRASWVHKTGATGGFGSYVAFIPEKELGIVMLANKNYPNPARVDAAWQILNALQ
# Molecular target: Beta-lactamase (Escherichia coli (strain K12)) (UniProt P00811)
# Assay: Promiscuous and Specific Inhibitors of AmpC Beta-Lactamase (assay without detergent); also: % of control where 0% means no effect
# Conditions: AmpC nitrocefin hydrolysis, absorbance 480 nm, no detergent
# Description: NIH Molecular Libraries Screening Centers Network [MLSCN]
# NIH Chemical Genomics Center [NCGC]
# PI Name: Shoichet, Brian K.
# This aggregation profiling approach exploits the sensitivity of aggregate formation to detergent. Inhibition of b-lactamase is measured in the presence and absence of 0.01% Triton X-100. See Pubchem assay "Promiscuous and Specific Inhibitors of AmpC Beta-Lactamase (assay with detergent)" for related screen. Compounds that inhibit only in the absence of detergent are considered likely promiscuous aggregators.
# A screen of 1,030 compounds was performed in Brian Shoichet's lab in 96-well format. AmpC activity was measured by following the absorbance at 480 nm. Nitrocefin is a chromogenic substrate: while nitrocefin is yellow (lmax 390 nm), the product of its hydrolysis is red (lmax 486 nm, 17,000 M-1). AmpC beta lactamase was provided by Brian Shoichet and Brian Feng, UCSF.
# NCGC Assay Protocol Summary:
# 20 mM phosphate buffer, pH 7.0
# Triton X-100: No Detergent screen: 0.0001%, Detergent screen: 0.01%.
# Buffer in columns 3 and 4 as negative control (no enzyme).
# 5.3 nM AmpC in columns 1, 2, 5-48. Titration of UCSF compound 9 control (from 10 mM, then 1:2) pin-transferred to column 2. Column 1 is neutral (100% activity).
# Six uL of reagents were dispensed to 1536-well Greiner black clear bottom plates. Compounds and controls (23 nL) were transferred via Kalypsys PinTool. The plates were incubated for 15 min at room temperature, and then 2 uL of 800 uM solution of nitrocefin was added to start the reaction. The plates were immediately transferred to and read every 20 seconds for 4 min on ViewLux (Perkin-Elmer) High-throughput CCD imager using 480 nm absorbance protocol. During dispense, reagent bottles were kept submerged into 4 deg C water bath.
# Keywords: NIH Roadmap, MLSCN, MLI, MLSMR, qHTS, NCGC, AmpC Beta-Lactamase, Aggregation.
# [1] = at 28.7 µM (top of the series) unless noted
compound,measurement,setting,value
O=P1(Nc2nc3ccc(Cl)cc3s2)COc2ccccc2O1 (centres undefined),"activity change, negative = inhibition",[1],inactive: -10.8%
CP(=O)(Nc1ccccc1F)Oc1ccccc1 (centres undefined),"activity change, negative = inhibition",[1],inactive: -17.6%
COC(=O)c1cc2c(s1)N=C(c1ccccc1)N(C)P2(=O)N1CCOCC1 (centres undefined),"activity change, negative = inhibition",[1],inactive: 21.5%
Cc1cccc([N+](=O)[O-])c1[N+](=O)[O-],"activity change, negative = inhibition",[1],inactive: -9%
CCC(C)(OO)OOC(C)(CC)OO (centres undefined),"activity change, negative = inhibition",[1],inactive: 9.6%
Cc1c([N+](=O)[O-])cccc1[N+](=O)[O-],"activity change, negative = inhibition",[1],inactive: -4.8%
Cc1ccc([N+](=O)[O-])c([N+](=O)[O-])c1,"activity change, negative = inhibition",[1],inactive: -0.5%
O=C(OC1CN2CCC1CC2)c1cccc(Cl)c1 (centres undefined),"activity change, negative = inhibition",[1],inactive: -5.9%
CN(C)CCOC(=O)C(O)(c1ccccc1)C1CCCCC1 (centres undefined),"activity change, negative = inhibition",[1],inactive: 16.5%
Cc1cc([N+](=O)[O-])cc([N+](=O)[O-])c1O,"activity change, negative = inhibition",[1],inactive: -8.1%
[N-]=[N+]=Nc1ccc([As](=O)(O)O)cc1,"activity change, negative = inhibition",[1],inactive: -6.4% [at 5.75 µM]
CN1CCC[C@H](OC(=O)C(c2ccccc2)c2ccccc2)C1,"activity change, negative = inhibition",[1],inactive: 0.7% [at 5.75 µM]
CP(=O)(Nc1ccc2c(c1)OCCO2)Oc1ccccc1 (centres undefined),"activity change, negative = inhibition",[1],inactive: 0%
[NH4+].[O-][Cl+3]([O-])([O-])[O-],"activity change, negative = inhibition",[1],inactive: -7.7%
C[C@@H](O)COc1ccc([As](=O)(O)O)cc1N,"activity change, negative = inhibition",[1],inactive: 4.9% [at 5.75 µM]
Cc1ccccc1NP(C)(=O)Nc1ccccc1C,"activity change, negative = inhibition",[1],inactive: 17.6%
NNC(NN)NN.n1nc(-c2nn[nH]n2)n[nH]1,"activity change, negative = inhibition",[1],inactive: -2.3% [at 5.75 µM]
O=P(Nc1nccs1)(c1ccccc1)c1ccccc1,"activity change, negative = inhibition",[1],inactive: -3.4%
CCOP(C)(=S)SCC(=O)NC(C)(CC)C(=O)O (centres undefined),"activity change, negative = inhibition",[1],inactive: 1.4%
CCOP(=O)(CC)OCC,"activity change, negative = inhibition",[1],inactive: -18.5%
O=C(CO)Nc1ccc([As](=O)(O)O)cc1,"activity change, negative = inhibition",[1],inactive: 4.1% [at 5.75 µM]
N#[O+].[C-]#N.[C-]#N.[C-]#N.[C-]#N.[C-]#N.[Fe+2].[Na+].[Na+],"activity change, negative = inhibition",[1],inactive: -77.6%
COc1ccccc1OP(C)(=O)Nc1c(C)n(C)n(-c2ccccc2)c1=O (centres undefined),"activity change, negative = inhibition",[1],inactive: -16.3%
CCc1nc2c(n1)c1c(non1O)c1c2no[n+]1[O-],"activity change, negative = inhibition",[1],inactive: -2.7%
CP(=O)(Oc1ccccc1)N1CCOC1=O (centres undefined),"activity change, negative = inhibition",[1],inactive: 4.5%
C/C1=C2N=C(/C=C3N=C(/C(C)=C4\[N-][C@@](C)([C@H]5N=C1[C@@](C)(CCC(=O)NC[C@H](C)OP(=O)([O-])O[C@@H]1[C@H](O)[C@H](n6cnc7cc(C)c(C)cc76)O[C@@H]1CO)[C@@H]5CC(N)=O)[C@](C)(CC(N)=O)[C@H]4CCC(N)=O)[C@@](C)(CC(N)=O)[C@@H]\3CCC(N)=O)C(C)(C)[C@@H]/2CCC(N)=O.[C-]#N.[Co+3],"activity change, negative = inhibition",[1],inactive: 8.7% [at 12.8 µM]
CN(C(=O)Cc1ccccc1)[C@@H]1CC[C@@]2(CCCO2)C[C@H]1N1CCCC1,"activity change, negative = inhibition",[1],inactive: 84.2%
Cc1nc2ccc3ccccc3c2o1.O=[N+]([O-])c1cc([N+](=O)[O-])c(O)c([N+](=O)[O-])c1,"activity change, negative = inhibition",[1],inactive: -10.6%
[N-]=[N+]=NCC(O)CN=[N+]=[N-] (centres undefined),"activity change, negative = inhibition",[1],inactive: 1.9% [at 5.75 µM]
C(Cc1nn[nH]n1)c1nn[nH]n1,"activity change, negative = inhibition",[1],inactive: -2.2% [at 5.75 µM]
COc1ccccc1OP(C)(=O)Nc1ccc(C)c(C)c1 (centres undefined),"activity change, negative = inhibition",[1],inactive: 32.8%
Cc1c2non([O-])c-2c(C)[n+](=O)[n+]1[O-],"activity change, negative = inhibition",[1],inactive: -17%
CP(=O)(Nc1ccccn1)Oc1ccccc1 (centres undefined),"activity change, negative = inhibition",[1],inactive: 5.3%
NCC[C@@H](N)CSP(=O)(O)O,"activity change, negative = inhibition",[1],inactive: -0.9% [at 5.75 µM]
O=[N+]([O-])c1ccc(C[As](=O)(O)O)cc1,"activity change, negative = inhibition",[1],inactive: 4.2% [at 5.75 µM]
O=[N+]([O-])[O-].[NH4+],"activity change, negative = inhibition",[1],inactive: 0.4%
O=C(OC1CN2CCC1CC2)C12CC3CC(CC(C3)C1)C2 (centres undefined),"activity change, negative = inhibition",[1],inactive: 6.8%
NC(=O)Nc1cc([As](=O)(O)O)cc(I)c1O,"activity change, negative = inhibition",[1],inactive: -2.8% [at 5.75 µM]
Cc1ccc(NP(C)(=O)Oc2ccccc2)c(C)c1 (centres undefined),"activity change, negative = inhibition",[1],inactive: 30.7%
COc1ccccc1OP(C)(=O)Nc1ccc(C)cc1 (centres undefined),"activity change, negative = inhibition",[1],inactive: 17.1%
[N-]=[N+]=NCC(N)=O,"activity change, negative = inhibition",[1],inactive: 6.2% [at 5.75 µM]
O=[As]c1ccc(S(=O)(=O)NCCO)cc1 (centres undefined),"activity change, negative = inhibition",[1],inactive: -2.8% [at 5.75 µM]
CP(=S)(Nn1cnnc1)Oc1ccccc1 (centres undefined),"activity change, negative = inhibition",[1],inactive: -3.1%
CN(N=O)C(=N)N[N+](=O)[O-],"activity change, negative = inhibition",[1],inactive: -9.6%
N1=C(c2nnc(-c3nn[nH]n3)nn2)NNN1,"activity change, negative = inhibition",[1],inactive: 0.8% [at 5.75 µM]
CCOP(C)(=S)SCC(=O)NC(C)C(=O)O (centres undefined),"activity change, negative = inhibition",[1],inactive: -9.2%
COP1(=S)c2c(C)nn(CCC#N)c2N=C(c2ccc(F)cc2)N1C (centres undefined),"activity change, negative = inhibition",[1],inactive: 42.6%
CP(=O)(NC(=O)Nc1ccccc1)Oc1ccccc1 (centres undefined),"activity change, negative = inhibition",[1],inactive: -7.3%
O=C(COc1ccccc1)OC1CN2CCC1CC2 (centres undefined),"activity change, negative = inhibition",[1],inactive: -4.2%
O=C(O)[C@@H](O)c1ccc([As](=O)(O)O)cc1,"activity change, negative = inhibition",[1],inactive: 2.9% [at 5.75 µM]
Cc1nc2ccc3ccccc3c2s1.O=[N+]([O-])c1cc([N+](=O)[O-])c(O)c([N+](=O)[O-])c1,"activity change, negative = inhibition",[1],inactive: -2.3%
CN(CCCl)Cc1cc(Cl)c(NC2=NCCN2)c(Cl)c1,"activity change, negative = inhibition",[1],inactive: -5.2%
O=P1(Nc2ccccn2)COc2ccccc2OC1,"activity change, negative = inhibition",[1],inactive: -6.8%
Clc1n[nH]nc1-c1nn[nH][15n]1,"activity change, negative = inhibition",[1],inactive: 0.9%
O=P1(Nc2ncccn2)COc2ccccc2OC1,"activity change, negative = inhibition",[1],inactive: -10.6%
O=P1(Nc2ccc(Br)cn2)COc2ccccc2OC1,"activity change, negative = inhibition",[1],inactive: 2.1%
Cc1nn(-c2ccccc2)c2c1P(=O)(N1CCOCC1)N(C)C(c1ccccc1)=N2 (centres undefined),"activity change, negative = inhibition",[1],inactive: 103%
NC(=O)Nc1ccc([As](=O)(O)O)cc1,"activity change, negative = inhibition",at 12.8 µM (top of the series),inactive: -1.7%
same,"activity change, negative = inhibition",at 28.7 µM (top of the series),inactive: 16.4%
Cc1ccc([N+](=O)[O-])cc1[N+](=O)[O-],"activity change, negative = inhibition",[1],inactive: 9.3%
CCOP1(=S)c2c(C)nn(CCC#N)c2N=C(c2ccc(F)cc2)N1C (centres undefined),"activity change, negative = inhibition",[1],inactive: 72.6%
O=[N+]([O-])c1cccc([N+](=O)[O-])c1,"activity change, negative = inhibition",[1],inactive: -8.5%
O=P(Nc1nccs1)(c1ccccc1)c1nc2ccccc2s1 (centres undefined),"activity change, negative = inhibition",[1],inactive: -2.1%
CCOP1(=S)c2c(C)nn(CCC#N)c2N=C(c2ccccc2F)N1C (centres undefined),"activity change, negative = inhibition",[1],inactive: 76.9%
O=[As](O)(O)c1ccc([As](=O)(O)O)cc1,"activity change, negative = inhibition",[1],inactive: -3% [at 5.75 µM]
Cc1ccc(C)c(NP(C)(=O)Oc2ccccc2)c1 (centres undefined),"activity change, negative = inhibition",[1],inactive: 27.2%
NS(=O)(=O)Cc1ccc([As](=O)(O)O)cc1,"activity change, negative = inhibition",[1],inactive: -0.3% [at 5.75 µM]
O=C(CC(=O)c1ccccc1)O[C@H]1CN2CCC1CC2,"activity change, negative = inhibition",[1],inactive: 16% [at 5.75 µM]
CN(C(=O)Cc1ccc(Cl)c(Cl)c1)[C@@H]1CC[C@@]2(CCCO2)C[C@H]1N1CCCC1,"activity change, negative = inhibition",[1],inactive: 15.4%
